Assay [1] concerns Human immunodeficiency virus 1. In words: Antiviral activity against HIV1 LAI infected in human MT2 cells by MTT assay. The conditions noted are these: Human immunodeficiency virus 1, M:B_Lai. It counts as functional, organism-based. The procedure, abridged: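 MT-2 human T-lymphoid cells (2×10³) infected with HIV-1LAI at 100 TCID50, then cultured in the presence of each protease inhibitor. IC50 was determined from an MTT read-out of cell viability.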
In general terms: Formazan colour is commonly taken as a measure of viable cells.

For another assay, the target named is Protease (Human immunodeficiency virus 1, UniProt Q9YQ12). Put plainly: Inhibition of HIV1 protease.

In ChEMBL document CHEMBL1156053, “Design, synthesis, protein-ligand X-ray structure, and biological evaluation of a series of novel macrocyclic human immunodeficiency virus-1 protease inhibitors to combat drug resistance” (J Med Chem, 2009) one finds IC50 and Ki data, which are given here for 1 compound.

The term IC50 denotes the point on the concentration scale where inhibition reaches its midpoint. The low end stands for greater potency, the high end for weaker potency. As usually defined, the Ki is the dissociation constant of the complex between target and ligand, obtained from inhibition or displacement. The low end stands for tighter binding, the high end for weaker binding.

On to `COc1ccc2c(c1)OCCCCN(C[C@@H](O)[C@H](Cc1ccccc1)NC(=O)O[C@H]1CO[C@H]3OCC[C@H]31)S2(=O)=O`, for which half-maximal inhibition in assay [1] (IC50) required 77 nM. In addition, the affinity at Protease corresponds to a Ki of 1.27 nM.
